Measured values from several laboratories, pooled; numbers as filed in NIAID ChemDB.

Common to all: tests on isolated targets

ICn: concentration for n% inhibition.

CC(CC(N)=O)NC(=O)[C@@H]1CSCN1C(=O)[C@@H](O)[C@H](Cc1ccccc1)NC(=O)[C@H](CS(C)(=O)=O)NC(=O)COc1cccc2ccccc12 ; tested at: 0.05 µM ; endpoint: inhibition ; target: Protease ; organism: HIV-1 ; result: 67%
CC(C)(N)C#Cc1ccc(NC(=O)CSc2nnnn2-c2cc(C(F)(F)F)ccc2Cl)c(Cl)c1 ; endpoint: IC50 ; target: Reverse transcriptase ; changes: RT-K103 Y181C ; read by: PicoGreen / fluorescence ; organism: HIV-1 ; result: <1 µM
CN(C)C(=O)CNC(=O)c1cn2ccn(Cc3cccc(Cl)c3)c(=O)c2c(O)c1=O ; endpoint: IC50 ; target: Integrase ; read by: ELISA ; organism: HIV-1 ; result: 0.01–0.1 µM
CC(C)[C@H](NC(=O)[C@@H]1CCCN1C(=O)[C@@H](O)[C@H](Cc1ccccc1)NC(=O)[C@H](CC(N)=O)NC(=O)CCc1ccccc1)C(N)=O ; endpoint: IC50 ; target: Protease ; organism: HIV-1 ; result: <5 µM
Nc1ccn([C@@H]2CS[C@H](COP(=O)(O)OP(=O)(O)OP(=O)(O)O)O2)c(=O)n1 ; endpoint: fold resistance ; target: Reverse transcriptase ; changes: RT-L74V K103N ; read by: radiometric ; organism: HIV ; result: 1.5
CN(C(=O)Cn1ccn2ccc(=O)c(O)c2c1=O)c1ccccc1 ; endpoint: IC50 ; target: Integrase ; read by: ELISA ; organism: HIV-1 ; result: 0.1–1 µM
CC(C)Oc1cccc(OCC(=O)N[C@@H](CC(N)=O)C(=O)N[C@@H](Cc2ccccc2)[C@H](O)C(=O)N2CSC(C)(C)[C@H]2C(=O)NC(C)(C)C)c1 ; tested at: 0.05 µM ; endpoint: inhibition ; target: Protease ; organism: HIV-1 ; result: 98.6%
CC(C)(C#Cc1ccc(NC(=O)CSc2nnnn2-c2ccc(C(C)(C)C)cc2Cl)c(Cl)c1)OCC(=O)Nc1ccc(C(=O)O)cc1 ; endpoint: IC50 ; target: Reverse transcriptase ; read by: PicoGreen / fluorescence ; organism: HIV-1 ; strain: WT ; result: <1 µM
CNC(=O)c1cc(=O)c(O)c2n1CCN(Cc1ccc(Cl)c(Cl)c1)C2=O ; endpoint: IC50 ; target: Integrase ; read by: ELISA ; organism: HIV-1 ; result: 0.01–0.1 µM
CC(C)(C#Cc1ccc(NC(=O)CSc2nnnn2-c2ccc(C3CC3)cc2Cl)c(Cl)c1)NCc1cnc[nH]1 ; endpoint: IC50 ; target: Reverse transcriptase ; read by: PicoGreen / fluorescence ; organism: HIV-1 ; strain: WT ; result: <1 µM
O=c1ccn2c(CO)cn(Cc3ccc(Cl)c(Cl)c3)c(=O)c2c1O ; endpoint: IC50 ; target: Integrase ; read by: ELISA ; organism: HIV-1 ; result: <0.01 µM
CC(C)(C#Cc1ccc(NC(=O)CSc2nnnn2-c2cc(C(F)(F)F)ccc2Cl)c(Cl)c1F)C(=O)O ; endpoint: IC50 ; target: Reverse transcriptase ; changes: RT-K103 Y181C ; read by: PicoGreen / fluorescence ; organism: HIV-1 ; result: <1 µM
CC(C)(C)NC(=O)[C@@H]1CCCN1C(=O)[C@@H](O)[C@H](Cc1ccccc1)NC(=O)[C@H](CC(N)=O)NC(=O)c1nccc2ccccc12 ; tested at: 0.05 µM ; endpoint: inhibition ; target: Protease ; organism: HIV-1 ; result: 27.2%
COc1cccc(CC(=O)Nc2ccc(NC(=O)CSc3nnnn3-c3ccc(C(C)(C)C)cc3Cl)c(Cl)c2)c1 ; endpoint: IC50 ; target: Reverse transcriptase ; changes: RT-K103 Y181C ; read by: PicoGreen / fluorescence ; organism: HIV-1 ; result: <1 µM
CC(C)(C)NC(=O)[C@@H]1C[C@H](C2CCCCC2)CN1C(=O)[C@@H](O)[C@H](Cc1ccccc1)NC(=O)[C@H](CC(N)=O)NC(=O)OCc1ccccc1 ; tested at: 0.05 µM ; endpoint: inhibition ; target: Protease ; organism: HIV-1 ; result: 1%

Percent inhibition refers to the dose given; in toxicity tests it is the harm to the cells. Two numbers with a dash give a range or band. Conditions beyond the fields shown may differ between rows. Fold resistance has wild type as its base.